Anti-infective test results gathered from many reports (values: NIAID ChemDB through PubChem).

Common to all: whole-cell or culture tests; species: Rhinovirus

Rows are shuffled and stem from different studies. ECn: concentration that inhibits the pathogen or its effect by n%.

compound | cell line | strain | endpoint | method | result
CN(C)c1nc(C(F)(F)F)nc2c1ncn2Cc1ccc(Cl)c(NC=O)c1 | M-HELA | Serotype 4 | EC50 | plaque count | >8 µM
CS(=O)(=O)c1ccc(NCc2ccc(Cl)c(Cl)c2)nc1 | HeLa | TYPE 74 | EC50 | cytopathic effect | 1.3 µg/mL
CCOC(=O)c1ccc(OCCC2CCN(c3ccc(C)nn3)CC2)cc1 | KB | CH79 (ICAM-1 receptor group 38) | EC50 | neutral red | 0.027 µM
CCS(=O)(=O)c1ccc(Cc2ccc(Cl)c(Cl)c2)nc1C(N)=O | HeLa | TYPE 1A | EC50 | cytopathic effect | 1.3 µg/mL
CSc1nsc(-c2ccc(OCCCCOc3ccccc3)cc2)c1C#N | HELA-OHIO | Serotype 72 (group A) | EC50 | cytopathic effect | >20 µM
CS(=O)(=O)c1ccc(NCc2ccc(Br)cc2)nc1 | HeLa | TYPE 64 | EC50 | cytopathic effect | 6.3 µg/mL
CCc1nc(-c2cc(C)c(OCCCc3cc(COC)no3)c(C)c2)no1 | HeLa | Serotype 1A | EC50 | cytopathic effect | 0.077 µg/mL
Cc1c(-c2ccccc2)n(-c2ccc(F)cc2)c2ccc(C(C)C)cc2c1=O | HELA-OHIO | TYPE 1B/B632 | EC50 | cytopathic effect | 0.27 µg/mL
Cc1cc(CCCCCOc2c(Cl)cc(C3=NCCO3)cc2Cl)on1 | HeLa | TYPE 31 | EC50 | plaque count | 0.28 µg/mL
Cc1c(-c2ccccc2)n(-c2cccc(F)c2)c2ccc(C(C)C)cc2c1=O | HELA-OHIO | 3 (FEB) | EC50 | cytopathic effect | >1 µg/mL
Cc1ccc(Cn2cnc3c(N(C)C)nc(C(F)(F)F)nc32)cc1 | M-HELA | Serotype 3 | EC50 | plaque count | >2.5 µM
O=C(c1ccccc1)c1ccc(Oc2ccc(S(=O)(=O)Cc3ccccc3)cn2)cc1 | HeLa | TYPE 2 | EC50 | cytopathic effect | >10 µg/mL
CCn1c2c(c(=O)c3cc(C(C)C)ccc31)Cc1ccccc1-2 | HELA-OHIO | 10/204-CV14 | EC50 | cytopathic effect | 1.8 µg/mL
CSc1nsc(-c2ccc(OCCCCOc3ccc(C#N)cc3)cc2)c1C#N | HELA-OHIO | Serotype 70 (group A) | EC50 | cytopathic effect | >2 µM
CCOC(=O)/C=C/[C@H](C[C@@H]1CCNC1=O)NC(=O)[C@@H](CC(=O)[C@@H](NC(=O)c1cc(C)on1)C(C)C)Cc1ccc(F)cc1 | OHIO HELA-I | Isolate 11 | EC50 | cytopathic effect / visual reading | 0.03 µg/mL
CCCc1ccc(CCCOc2cc(C)c(-c3noc(C4CC4)n3)c(C)c2)nn1 | HeLa | serotypes 3 4 5 9 16 18 38 66 75 67 | EC80 | cytopathic effect | 0.19 µg/mL
CCOC(=O)c1ccc(OCCCOc2ccc(-c3snc(SC)c3C#N)cc2)cc1 | HELA-OHIO | Serotype 9 (group B) | EC50 | cytopathic effect | >2 µM
COc1ccc(CNc2ccc(S(C)(=O)=O)cn2)cc1OC | HeLa | TYPE 2 | EC50 | cytopathic effect | >10 µg/mL
Cc1ccc(Cn2cnc3c(N(C)c4ccccc4)nc(C(F)(F)F)nc32)cc1 | M-HELA | Serotype 4 | EC50 | plaque count | 5.1 µM
Cc1cc(OCCCc2ccc(CO)nn2)cc(C)c1-c1noc(C(F)(F)F)n1 | HeLa | serotypes 3 4 5 9 16 18 38 66 75 67 | EC50 | cytopathic effect | 0.07 µg/mL
CSc1nsc(-c2ccccc2)c1C#N | HELA-OHIO | Serotype 29 (group B) | EC50 | cytopathic effect | >80 µM
Cc1ccccc1Cn1cnc2c(N(C)C)nc(C(F)(F)F)nc21 | M-HELA | Serotype 8 | EC50 | plaque count | >8 µM
CSc1nsc(-c2ccc(OS(=O)(=O)c3ccc(C)cc3)cc2)c1C#N | HELA-OHIO | Serotype 2 (group B) | EC50 | cytopathic effect | 0.03 µM
CC(=O)c1ccc(CCCOc2cc(C)c(-c3noc(C)n3)c(C)c2)nn1 | HeLa | serotypes 3 4 5 9 16 18 38 66 75 67 | EC50 | cytopathic effect | 0.14 µg/mL
CSc1nsc(-c2ccc(OCc3ccccc3)cc2)c1C#N | HELA-OHIO | Serotype 41 (group B) | EC50 | cytopathic effect | 32 µM
Cc1nc(-c2cc(C)c(OCCCc3ccco3)c(C)c2)no1 | HeLa | serotypes 2 14 1A 1B 6 21 22 15 25 30 50 67 89 86 41 | EC50 | cytopathic effect | 0.475 µg/mL
COC(=O)c1cc(CCCOc2c(C)cc(-c3noc(C)n3)cc2C)on1 | HeLa | Serotype 86 | EC50 | cytopathic effect | 0.078 µg/mL
CN(C)c1nc(C(F)(F)F)nc2c1ncn2Cc1ccc(Cl)cc1Cl | M-HELA | Serotype 31 | EC50 | plaque count | >8 µM
CSc1nsc(-c2ccc(OCCOc3ccc(C#N)cc3)cc2)c1C#N | HELA-OHIO | Serotype 85 (group B) | EC50 | cytopathic effect | >2 µM
COCc1cc(CCCOc2c(Cl)cc(-c3noc(C)n3)cc2Cl)on1 | HeLa | Serotype 86 | EC50 | cytopathic effect | 0.072 µg/mL
CCOC(=O)c1ccc(OCCC2CCN(c3ccc(C)nn3)CC2)cc1 | WI-38 | Serotype 87 | EC50 | cytopathic effect | >0.1 µg/mL
CSc1nsc(-c2ccc(OCCCCOc3ccc([N+](=O)[O-])cc3)cc2)c1C#N | HELA-OHIO | Serotype 89 (group B) | EC50 | cytopathic effect | >0.5 µM
CS(=O)(=O)c1ccc(Cc2ccc(Cl)c(Cl)c2)nc1 | HeLa | TYPE 9 | EC50 | cytopathic effect | >10 µg/mL
CN(C)c1nc(C(F)(F)F)nc2c1ncn2Cc1ccccc1Cl | M-HELA | Serotype 5 | EC50 | plaque count | >8 µM
CS(=O)(=O)c1ccc(Oc2ccc(C(=O)c3ccccc3)cc2)nc1 | HeLa | TYPE 8 | EC50 | cytopathic effect | >10 µg/mL
Fc1cccc(Cn2cnc3c(Nc4cccc(F)c4)nc(C(F)(F)F)nc32)c1 | M-HELA | Serotype 18 | EC50 | plaque count | 4.3 µM
Cc1cc(Cl)ccc1Cn1cnc2c(N(C)C)nc(C(F)(F)F)nc21 | M-HELA | Serotype 21 | EC50 | plaque count | >8 µM
CSc1nsc(-c2ccc(OCc3ccccc3)cc2)c1C#N | HELA-OHIO | Serotype 2 (group B) | EC50 | cytopathic effect | 20 µM
CC(=O)Nc1ccc(Cc2ccc(S(C)(=O)=O)cn2)cc1 | HeLa | TYPE 64 | EC50 | cytopathic effect | >10 µg/mL

A second listing of 4 rows from above:

| compound | cell line | strain | endpoint | method | result |
|---|---|---|---|---|---|
| CS(=O)(=O)c1ccc(NCc2ccc(Br)cc2)nc1 | HeLa | TYPE 64 | EC50 | cytopathic effect | 6.3 µg/mL |
| CCOC(=O)c1ccc(OCCC2CCN(c3ccc(C)nn3)CC2)cc1 | WI-38 | Serotype 87 | EC50 | cytopathic effect | >0.1 µg/mL |
| CSc1nsc(-c2ccc(OCCOc3ccc(C#N)cc3)cc2)c1C#N | HELA-OHIO | Serotype 85 (group B) | EC50 | cytopathic effect | >2 µM |
| CC(=O)Nc1ccc(Cc2ccc(S(C)(=O)=O)cn2)cc1 | HeLa | TYPE 64 | EC50 | cytopathic effect | >10 µg/mL |